This is an account of results in paper PMC7182274 (PLoS Pathogens, 2020).

The target of the experiment is F. novicida ClpB (wild-type) (F. novicida).

The substance F. novicida ClpB (wild-type) returned a stoichiometry N of 6.
